Experimental data from PubChem BioAssay AID720554 (ICCB-Longwood Screening Facility, Harvard Medical School, 2013).
This is a selection; strong and weak results do not stand in their true shares. The source made the active and inactive calls. No stated cut-off is given here; in the data, active means inhibition mostly above about 83% (no sharp cut-off); inactive means mostly below about 52%.

Each compound was assayed on acyl-homoserine lactone synthase BmaI1 (Burkholderia mallei ATCC 23344) (assay: BmaI1 acyl-homoserine lactone synthase inhibition – biochemical, fluorescence intensity, with counterscreen (AID 720554)). Conditions: BmaI1 enzyme assay, active compounds read high, concentration not given here.
With O=P1(Nc2nncs2)C=C(c2ccccc2)SC(c2ccccc2)=C1 the inhibition was inactive: 17.5%.
With CCN1C(=O)N(c2ccccc2)P(=S)(OC)c2cc3c(cc21)OCCO3 (stereo not drawn) the inhibition was inactive: 24.5%.
For CCSP(=O)(c1ccccc1)c1ccccc1, the inhibition was inactive: 11.5%.
